Where two headings read alike, the source gives them in different places.
Molecular target: HCV polymerase (NS5B570n-Con1) (Hepatitis C virus genotype 1b, UniProt Q9WMX2)
Details: read-out: IC50 HCV NS5B RNA Polymerase Assay, values without asterisk, 20 nM NS5B570n-Con1 enzyme, 20 nM cIRES RNA template
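Also: recombinant His-tagged enzyme from E. coli, radiolabeled nucleotide incorporation into acid-insoluble RNA read by scintillation after filtration, no-enzyme background subtracted, activity relative to positive control.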

COc1c(CC(CN2CCCC2)c2ccc(NS(C)(=O)=O)cc2)cc(-c2ccc[nH]c2=O)cc1C(C)(C)C (stereo not drawn)
IC50: 47 nM

COc1c(C(=O)NCCc2cccnc2)cc(-c2ccc[nH]c2=O)cc1C(C)(C)C
IC50: 1050 nM

COc1c(C(=O)c2ccc(CN)cc2)cc(-c2ccc[nH]c2=O)cc1C(C)(C)C
IC50: 65 nM

COc1c(C(=O)NC2CCNCC2)cc(-c2ccc[nH]c2=O)cc1C(C)(C)C
IC50 (tested form: formate): 129 nM

CC(C)(C)c1cc(CCC(=O)O)c(O)c(-c2ccc[nH]c2=O)c1
IC50: 957 nM

COc1c(C(=O)NC2CCCNC2)cc(-c2ccc[nH]c2=O)cc1C(C)(C)C (stereo not drawn)
IC50 (tested form: formate): 496 nM

CC(C)(C)c1cccc(-c2ccc[nH]c2=O)c1
IC50: 3960 nM

COc1c(CCc2ccc(NS(C)(=O)=O)cc2)cc(-c2cc(Br)c[nH]c2=O)cc1C(C)(C)C
IC50: 27 nM

CC(C)(C)c1cc(/C=C/c2ccc(NS(C)(=O)=O)cc2)cc(-c2ccc[nH]c2=O)c1 [I-141, N-(4-{(E)-2-[3-tert-Butyl-5-(2-oxo-1,2-dihydro-pyridin-3-yl)-phenyl]-vinyl}-phenyl)-methanesulfonamide]
IC50: 3 nM

From patent publication US8273773B2 (priority 2008, dated 2012)
